Measurements taken from US5670622A, “Conotoxin peptide PIIIA” (dated 1997).

The chains behind the UniProt entries cited, without tags or fusion partners.
UniProt P04775, whole entry: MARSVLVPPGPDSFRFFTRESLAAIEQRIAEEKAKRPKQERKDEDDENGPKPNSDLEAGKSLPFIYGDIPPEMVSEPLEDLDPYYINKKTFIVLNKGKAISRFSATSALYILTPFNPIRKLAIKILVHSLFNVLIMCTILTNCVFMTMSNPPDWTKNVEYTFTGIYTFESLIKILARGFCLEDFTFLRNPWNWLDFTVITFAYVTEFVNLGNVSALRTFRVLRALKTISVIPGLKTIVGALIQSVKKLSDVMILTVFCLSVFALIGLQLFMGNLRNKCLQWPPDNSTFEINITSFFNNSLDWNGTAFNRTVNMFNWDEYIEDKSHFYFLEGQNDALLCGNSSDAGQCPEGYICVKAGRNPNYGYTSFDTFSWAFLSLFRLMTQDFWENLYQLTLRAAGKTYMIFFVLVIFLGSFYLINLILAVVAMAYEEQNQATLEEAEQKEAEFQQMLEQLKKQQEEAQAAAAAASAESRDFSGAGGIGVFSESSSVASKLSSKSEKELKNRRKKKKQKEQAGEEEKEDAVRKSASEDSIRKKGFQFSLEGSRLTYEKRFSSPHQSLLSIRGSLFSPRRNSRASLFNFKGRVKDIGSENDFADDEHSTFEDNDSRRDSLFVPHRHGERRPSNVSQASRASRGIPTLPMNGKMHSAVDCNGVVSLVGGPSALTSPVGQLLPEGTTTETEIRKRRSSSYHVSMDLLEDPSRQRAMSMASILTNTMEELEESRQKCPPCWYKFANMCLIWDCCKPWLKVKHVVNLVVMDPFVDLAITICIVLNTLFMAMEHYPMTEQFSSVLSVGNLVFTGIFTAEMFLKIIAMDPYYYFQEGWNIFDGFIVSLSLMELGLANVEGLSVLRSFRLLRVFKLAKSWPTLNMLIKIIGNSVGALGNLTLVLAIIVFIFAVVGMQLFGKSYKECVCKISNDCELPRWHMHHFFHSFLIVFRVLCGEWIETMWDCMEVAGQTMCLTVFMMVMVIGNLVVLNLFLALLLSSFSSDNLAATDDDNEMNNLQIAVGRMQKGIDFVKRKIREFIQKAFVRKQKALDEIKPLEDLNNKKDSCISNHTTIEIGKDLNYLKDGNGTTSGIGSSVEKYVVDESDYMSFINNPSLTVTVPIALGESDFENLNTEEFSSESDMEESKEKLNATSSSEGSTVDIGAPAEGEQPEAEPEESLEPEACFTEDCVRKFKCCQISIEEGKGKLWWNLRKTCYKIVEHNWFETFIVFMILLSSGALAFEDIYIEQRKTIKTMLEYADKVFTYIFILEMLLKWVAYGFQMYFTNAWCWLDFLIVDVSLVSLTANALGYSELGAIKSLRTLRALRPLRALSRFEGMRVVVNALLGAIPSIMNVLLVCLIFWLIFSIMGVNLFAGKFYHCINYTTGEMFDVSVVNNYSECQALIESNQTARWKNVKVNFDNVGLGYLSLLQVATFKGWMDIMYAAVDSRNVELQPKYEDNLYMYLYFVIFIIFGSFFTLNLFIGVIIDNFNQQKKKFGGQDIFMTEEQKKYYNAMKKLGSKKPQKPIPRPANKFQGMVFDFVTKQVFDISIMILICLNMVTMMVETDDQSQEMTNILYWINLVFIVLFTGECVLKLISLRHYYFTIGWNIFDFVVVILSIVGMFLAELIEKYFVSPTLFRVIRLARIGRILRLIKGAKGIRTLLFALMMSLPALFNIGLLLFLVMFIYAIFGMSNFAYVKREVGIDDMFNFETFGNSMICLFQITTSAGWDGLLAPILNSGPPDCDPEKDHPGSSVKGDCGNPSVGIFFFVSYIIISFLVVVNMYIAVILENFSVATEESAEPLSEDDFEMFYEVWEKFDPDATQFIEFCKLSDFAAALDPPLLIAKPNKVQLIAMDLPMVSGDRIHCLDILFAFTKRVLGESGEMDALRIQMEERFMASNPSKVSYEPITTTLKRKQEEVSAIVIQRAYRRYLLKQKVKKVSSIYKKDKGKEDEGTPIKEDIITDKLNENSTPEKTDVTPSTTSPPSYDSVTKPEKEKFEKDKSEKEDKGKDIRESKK

What was measured:
[1] = test system: nerve-muscle preparation; assay: Frog nerve-muscle preparation, motor nerve electrically stimulated
[2] = test system: frog cutaneus pectoris muscle; assay: Directly-evoked action potentials in frog cutaneus pectoris muscle (extracellular recording, partitioned chamber)
[3] = test system: fish; assay: Paralysis in fish by the synthetic peptide; details: pure synthetic peptide
[4] = molecular target: rat Type II sodium channel α-subunit (Rattus norvegicus, UniProt P04775)

CC(C)C[C@H](NC(=O)[C@H](CCCNC(=N)N)NC(=O)[C@@H]1CCC(=O)N1)C(=O)N[C@H]1CSSC[C@@H]2NC(=O)[C@H](CCC(N)=O)NC(=O)[C@H](CCCNC(=N)N)NC(=O)[C@H](CO)NC(=O)[C@H](CCCNC(=N)N)NC(=O)[C@@H]3CSSC[C@@H](C(N)=O)NC(=O)[C@H](CSSC[C@H](NC1=O)C(=O)NCC(=O)N[C@@H](Cc1ccccc1)C(=O)N1C[C@H](O)C[C@H]1C(=O)N[C@@H](CCCCN)C(=O)N[C@@H](CO)C(=O)N3)NC(=O)[C@H](CCCNC(=N)N)NC(=O)[C@H](Cc1c[nH]cn1)NC(=O)[C@@H]1C[C@@H](O)CN1C(=O)[C@H](CCCCN)NC2=O was tested, and the “muscle twitching and action potentials on motor nerve stimulation” value ([1]; entire nerve-muscle preparation exposed to toxin) was “completely abolished”, the “propagation of action potentials in the motor axon” value ([1]; excitatory post-synaptic responses still recorded) was “not blocked” and the “reversibility in frog neuromuscular preparation compared with μ-GIIIA” value [2] was “much more irreversibly”. For the same molecule, the “negative phase of the response (action potential in toxin-exposed segment D)” value ([2]; 1 μM, 23 minutes exposure) was “completely abolished”, the “block of directly-evoked action potentials in frog muscle” value ([2]; 1 μM, toxin only in compartment D) was “blocks directly-evoked action potentials” and the “recovery in segment D upon washing” value ([2]; washing for many hours in the absence of toxin) was “no recovery was observed”. For the same molecule, the effect on fish [3] was “flaccid paralysis”, the “block of Na+ currents” value ([4]; 2 μM in the bath solution) was “abolished nearly all” and the “block of whole cell currents (FIG. 4B legend)” value ([4]; 2 mM added to the bath solution) was “profound block”. The reversibility of block ([4]; wash with Normal Frog Ringers solution) was “reversible”.
